PubChem BioAssay AID1224833 – University of Georgia – 2016

Screen: 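Host factors restraining rotavirus as candidate antiviral genes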 (primary screen)
Cells: monkey MA104 kidney cells
Reagent: siRNA pool against human genes, 50 nM
Time to read-out: 48 h knock-down before infection; read 24 h after infection
Treatment: infection with rotavirus strain RV3 two days after transfection; infectious dose for this stage not given
Read-out: 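z-score of rotavirus antigen signal per well, from a fluorescent immunoassay, relative to non-targeting control wells on the same plate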
Reading the numbers: z-score vs non-targeting control: higher = more rotavirus replication than with non-targeting control
Rule for the call: In these data the active calls have z-score vs non-targeting control at about -1 or lower, or at about 1 or higher
Calls: active = z-score beyond 1 either way; inactive = z-score within 1 of zero
Here is an unselected part of about 12,000 reagents tested. Of all reagents, about 5,600 (46%) got an active call. 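Active calls cover z-scores past 1 in both directions, so they include lowered as well as raised rotavirus replication.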 Entries without a mark were called inactive. Reagents against one gene are numbered here.

z-score vs non-targeting control | target gene | pool no.
-0.594 | PCNX2 | 1
0.0682 | MSI2 | 1
1.21 (active) | ZC2HC1A | 1
-1.25 (active) | NF2 | 1
-0.946 | CYP7A1 | 1
0.101 | GIMAP1 | 1
0.0555 | H2AC17 | 1
2.78 (active) | RGS6 | 1
-0.439 | OR4C45 | 1
-0.321 | CLEC10A | 1
-0.646 | ATP6V1H | 1
-0.504 | SULT4A1 | 1
-1.76 (active) | ZNF585A | 1
0.785 | FANCI | 1
-0.553 | RUNDC1 | 1
-1.23 (active) | PCDHB3 | 1
0.972 | SPANXC | 1
1.38 (active) | UBE3D | 1
-1.18 (active) | RIN1 | 1
0.87 | SMPD4 | 1
-0.444 | ENAH | 1
1.16 (active) | CENPM | 1
-0.596 | OR5F1 | 1
-0.693 | OR2L3 | 1
2.42 (active) | CCDC85B | 1
1.61 (active) | ZSCAN16 | 1
1.89 (active) | TGS1 | 1
-2.48 (active) | LCN12 | 1
-1.23 (active) | FOXA1 | 1
1.34 (active) | HEPN1 | 1
0.814 | IL33R | 1
-0.939 | RAD9A | 1
-0.172 | MYL9 | 1
-0.522 | NRM | 1
-1.7 (active) | SLC4A9 | 1
0.503 | LCMT2 | 1
-0.98 | RAP1GAP2 | 1
-0.252 | MLIP | 1
-1.06 (active) | ADRA1B | 1
0.484 | FAM81B | 1
0.461 | OR5H15 | 1
1.86 (active) | ASNS | 1
2.1 (active) | PLEKHG4B | 1
-1.36 (active) | HTR3B | 1
-0.124 | PCDHGA4 | 1
1.48 (active) | CAMSAP3 | 1
-0.132 | EID3 | 1
0.506 | METTL1 | 1
-0.475 | LRRC20 | 1
-0.354 | ECSCR | 1
2.99 (active) | GEMIN8 | 1
1.4 (active) | APOB | 1
-1.69 (active) | SLC6A20 | 1
0.732 | C2orf66 | 1
-0.0755 | VWA8 | 1
0.0263 | NCKIPSD | 1
1.37 (active) | PARD3B | 1
3.8 (active) | SRGAP1 | 1
0.921 | MAGEA9 | 1
-1.92 (active) | SUCLG2 | 1
-1.03 (active) | SNRPE | 1
1.36 (active) | HOXC11 | 1
0.871 | PNPLA7 | 1
0.527 | TOP2B | 1
-0.945 | FAM156A | 1
-1.48 (active) | CFHR3 | 1
-0.331 | TDRKH | 1
-0.544 | USP14 | 1
0.835 | MYO18A | 1
0.0525 | MYO18A | 2
-0.421 | MCTS1 | 1
-1.11 (active) | GPD1L | 1
-1.21 (active) | IL17RA | 1
-0.894 | PRC1 | 1
-0.647 | FUBP1 | 1
-1.56 (active) | TBL3 | 1
0.07 | F8A1 | 1
0.878 | GBA2 | 1
-1.24 (active) | FCGR3B | 1
-0.629 | ARL8B | 1
0.571 | YWHAG | 1
-1.55 (active) | EREG | 1
0.554 | ORM2 | 1
-1.18 (active) | UBXN11 | 1
-1.03 (active) | RANBP17 | 1

The list goes on, starting with the last 12 of the part before.
z-score vs non-targeting control | target gene | pool no.
-0.894 | PRC1 | 1
-0.647 | FUBP1 | 1
-1.56 (active) | TBL3 | 1
0.07 | F8A1 | 1
0.878 | GBA2 | 1
-1.24 (active) | FCGR3B | 1
-0.629 | ARL8B | 1
0.571 | YWHAG | 1
-1.55 (active) | EREG | 1
0.554 | ORM2 | 1
-1.18 (active) | UBXN11 | 1
-1.03 (active) | RANBP17 | 1
1.21 (active) | SLC66A3 | 1
-1.29 (active) | CNOT2 | 1
-0.869 | AJAP1 | 1
-0.488 | PSIP1 | 1
1.06 (active) | KIRREL1 | 1
-1.18 (active) | KLHDC7A | 1
-1.25 (active) | DMAC1 | 1
-0.561 | ABAT | 1
1.36 (active) | CCL27 | 1
-1.79 (active) | SUB1 | 1
-1.38 (active) | RERG | 1
-0.318 | REEP2 | 1
-1.01 (active) | IFNB1 | 1
-1.91 (active) | LMOD3 | 1
-1.24 (active) | APOA5 | 1
-0.0936 | LRRC73 | 1
-1.83 (active) | WBP4 | 1
-0.317 | SEMA7A | 1
-1.96 (active) | ELOB | 1
-1.05 (active) | ARHGEF16 | 1
-0.845 | TMEM88 | 1
-1.57 (active) | GOT1L1 | 1
1.3 (active) | TCAP | 1
-2.38 (active) | TMEM259 | 1
1.02 (active) | ZNF514 | 1
-0.205 | OR4S2 | 1
-1.36 (active) | IFNG | 1
-0.228 | MED28 | 1
-0.572 | LINC02915 | 1
-0.798 | SS18L2 | 1
-2.08 (active) | MYL1 | 1
-0.21 | RPS5 | 1
-3.34 (active) | UGT2B15 | 1
-0.974 | MGST1 | 1
0.585 | SEMA6C | 1
-1.93 (active) | BBOX1 | 1
-1.19 (active) | CDRT4 | 1
1.49 (active) | LIN54 | 1
1.06 (active) | CEP120 | 1
-1.88 (active) | HBQ1 | 1
-1.13 (active) | LRP5L | 1
1.07 (active) | PNRC1 | 1
0.852 | AFMID | 1
-0.272 | ATXN2L | 1
-0.257 | ANKRD6 | 1
-1.05 (active) | SIPA1L3 | 1
-2 (active) | MRPS10 | 1
1.68 (active) | KNDC1 | 1
-0.062 | PTBP2 | 1
-3.2 (active) | FOXN4 | 1
-0.65 | MAGEA1 | 1
-1.77 (active) | BMP8A | 1
0.0183 | AGPAT5 | 1
-1.53 (active) | BEND6 | 1
0.504 | ALAS2 | 1
